For the assay, the target named is Histamine H4 receptor (Homo sapiens, UniProt Q9H3N8). The settings on record: HEK293.

Protein sequences, listed by entry. Tags and fused reporters are not part of them. Lines headed by an entry give the natural chain unless they say otherwise; changes in a name come on top.
UniProt Q9H3N8: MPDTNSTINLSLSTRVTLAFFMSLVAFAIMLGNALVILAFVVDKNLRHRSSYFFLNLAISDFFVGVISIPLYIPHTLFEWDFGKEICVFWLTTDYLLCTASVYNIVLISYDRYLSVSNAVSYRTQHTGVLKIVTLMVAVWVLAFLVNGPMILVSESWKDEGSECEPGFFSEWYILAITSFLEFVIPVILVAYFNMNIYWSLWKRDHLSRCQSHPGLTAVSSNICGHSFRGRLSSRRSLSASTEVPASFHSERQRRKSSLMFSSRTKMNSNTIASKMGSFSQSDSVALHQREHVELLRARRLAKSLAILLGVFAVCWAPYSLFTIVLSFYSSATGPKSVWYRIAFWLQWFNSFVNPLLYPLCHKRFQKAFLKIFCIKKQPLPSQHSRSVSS

Each structure is given as a SMILES string.

For 1 molecule, pKb results are on record in ChEMBL document CHEMBL1140148, “Structure-activity studies on a series of a 2-aminopyrimidine-containing histamine H4 receptor ligands” (J Med Chem, 2008).

As to `CN1CCN(c2cc(-c3ccc(C#N)cc3)nc(N)n2)CC1`, the pKb (as a rule, the Kb on a negative log10 scale, so that one unit is a factor of ten) came out at 8.53.
